Compound potency records, mixed from different reports. Data source: NIAID ChemDB in PubChem.

A number after MIC or MFC names an inhibition level or a share of isolates. Percent inhibition refers to the dose given; in toxicity tests it is the harm to the cells. ICn is the concentration giving n% inhibition. An empty or dashed field is not shown. Neighbouring rows are from separate reports. MIC bound: limit read from a one-dose screen.

structure,test,dose,measure,strain or isolate,protein,species,method,value
CCOc1ccccc1CNCCNC12CC3CC(CC(C3)C1)C2,culture,,MIC,,,Mycobacterium tuberculosis,,25 µM
c1ccc2cnccc2c1,culture,,MIC,H37Rv,,Mycobacterium tuberculosis,,>100 µg/mL
CC1=CC(C/C(C)=C/COc2ccc3ccc(=O)oc3c2)OC1=O,culture,,MIC,H37Rv,,Mycobacterium tuberculosis,BACTEC,≥12.5 µg/mL
CC1CC=C(C(=O)O)CC1,culture,,MIC,H37Rv,,Mycobacterium tuberculosis,,>100 µg/mL
COc1ccc(N2CCN(c3cncc(-c4ccccc4)n3)CC2)cc1,target,,IC50,,UL97 kinase,Cytomegalovirus,,<100 µM
OCCCCCNCCNCc1ccccc1Sc1ccccc1CO,culture,,MIC,,,Mycobacterium tuberculosis,,12.5 µM
O=c1oc2ccc3ccccc3c2cc1-c1nc2ccccc2[nH]1,culture,6.25 µg/mL,inhibition,H37Rv,,Mycobacterium tuberculosis,BACTEC,0%
COc1ccccc1NCS(=O)(=O)[O-].[Na+],culture,,MIC,H37Rv,,Mycobacterium tuberculosis,,>100 µg/mL
COc1ccc(N2CCN(c3cncc(-c4ccc(Oc5ccccc5)cc4)n3)CC2)cc1OC,target,,IC50,,UL97 kinase,Cytomegalovirus,,<100 µM
Oc1ccc(O)c(Cl)c1,culture,,MIC,H37Rv,,Mycobacterium tuberculosis,,>100 µg/mL
CCCCC(CC)CN1CN(CC(CC)CCCC)CC(C)(NCCNCCc2ccc(OC)cc2)C1,culture,,MIC,,,Mycobacterium tuberculosis,,12.5 µM
S=C(Nc1ccccc1)c1ccccc1,culture,,MIC,H37Rv,,Mycobacterium tuberculosis,,>100 µg/mL
Cc1nnc2n1N=C(c1ccc(-c3ccc([N+](=O)[O-])cc3)o1)CS2,culture,,MIC bound,H37Rv,,Mycobacterium tuberculosis,BACTEC,>12.5 µg/mL
O=[N+]([O-])c1ccc(Cl)c2cccnc12,culture,,MIC,H37Rv,,Mycobacterium tuberculosis,,>100 µg/mL
c1ccc(CCCCNCCNCCC(c2ccccc2)c2ccccc2)cc1,culture,,MIC,,,Mycobacterium tuberculosis,,12.5 µM
Nc1cccc2c(Br)cncc12,culture,,MIC,H37Rv,,Mycobacterium tuberculosis,,>100 µg/mL
COC(=O)CC1(C(=O)OC)Nc2cc(Cl)c(Cl)cc2S(=O)(=O)N1O,culture,6.25 µg/mL,inhibition,H37Rv,,Mycobacterium tuberculosis,BACTEC,0%
Fc1ccc(CCNCCNCC(c2ccccc2)c2ccccc2)cc1,culture,,MIC,,,Mycobacterium tuberculosis,,25 µM
CCOc1ccc(-c2cncc(N3CCN(c4ccc(C)cc4)CC3)n2)cc1,target,,IC50,,UL97 kinase,Cytomegalovirus,,<100 µM
NNC(=O)CC(NN)c1ccccc1O,culture,,MIC,H37Rv,,Mycobacterium tuberculosis,BACTEC,≥12.5 µg/mL
Cl.NCCCc1ccccc1,culture,,MIC,H37Rv,,Mycobacterium tuberculosis,,100 µg/mL
COC1CC2CCC(C)C(O)(O2)C(=O)C(=O)N2CCCCC2C(=O)OC(C(C)CC2CCC(O)C(OC)C2)CC(=O)C(C)C=C(C)C(OC(=O)CCCN2CCCC2)C(OC)C(=O)C(C)CC(C)/C=C\C=C/C=C1C,culture,12.5 µg/mL,inhibition,H37Rv,,Mycobacterium tuberculosis,BACTEC,17%
O=C(COc1ccc([As](=O)(O)O)cc1)NCCO,culture,,MIC,H37Rv,,Mycobacterium tuberculosis,,>100 µg/mL
OCc1cccc(-c2cncc(N3CCN(c4ccncc4)CC3)n2)c1,target,,IC50,,UL97 kinase,Cytomegalovirus,,<100 µM
OC(c1cc(C2CCCCC2)nc2ccccc12)C1CCCCN1,culture,6.25 µg/mL,inhibition,H37Rv,,Mycobacterium tuberculosis,resazurin,25%
CCOC(=O)c1ccc(Br)c([N+](=O)[O-])c1,culture,,MIC,H37Rv,,Mycobacterium tuberculosis,,100 µg/mL
CC1CC/C(=N/O)CCCCC(=O)O1,culture,,MIC bound,H37Rv,,Mycobacterium tuberculosis,BACTEC,>12.5 µg/mL
Nc1nc(=O)[nH]c(=O)[nH]1,culture,,MIC,H37Rv,,Mycobacterium tuberculosis,,>100 µg/mL
C=CCc1ccc(O)c(OC)c1,culture,,MIC90,2509,,Candida tropicalis,turbidity,495 µg/mL
C[C@H](O)CNCCNCCc1ccccc1,culture,,MIC,,,Mycobacterium tuberculosis,,50 µM
CC(O)(c1ccncc1)c1cc2ccccc2n1S(=O)(=O)c1ccccc1,culture,6.25 µg/mL,inhibition,H37Rv,,Mycobacterium tuberculosis,,9%
CCCCc1ccc(S(=O)(=O)Nc2ccc(N)cc2)cc1,culture,,MIC,H37Rv,,Mycobacterium tuberculosis,,>100 µg/mL
c1ccc2cc(-c3cncc(N4CCN(c5ccncc5)CC4)n3)ccc2c1,target,,IC50,,UL97 kinase,Cytomegalovirus,,<1 µM
Cc1cc(Cl)ccc1Nc1sc(C(=O)c2cc3cc(Cl)ccc3o2)c(N)c1C#N,culture,,MIC bound,H37Rv,,Mycobacterium tuberculosis,BACTEC,>12.5 µg/mL
c1ccc(C2CCN(c3cncc(-c4cccc5ccccc45)n3)CC2)cc1,target,,IC50,,UL97 kinase,Cytomegalovirus,,<100 µM
CN1CCC=C(C(=O)O)C1,culture,,MIC bound,H37Rv,,Mycobacterium tuberculosis,BACTEC,>12.8 µg/mL
O=C(C(=O)c1ccccc1)c1ccccc1,culture,,MIC,H37Rv,,Mycobacterium tuberculosis,,>100 µg/mL
NC(=O)c1ccc(-c2cncc(N3CCN(c4ccncc4)CC3)n2)cc1,target,,IC50,,UL97 kinase,Cytomegalovirus,,<1 µM
OCCO,culture,,MIC,H37Rv,,Mycobacterium tuberculosis,,>100 µg/mL
COC(=O)C1C(O)C(C)C(=O)C(C)/C=C\C=C(C)C(=O)Nc2c(C)c(OC(C)=O)c3c(c2O)C(=O)C(C)=C2OCOC(=C23)/C(C)=C\C(C)(O)C(O)C(C)C1O,culture,,MIC,H37Rv,,Mycobacterium tuberculosis,BACTEC,≥12.8 µg/mL
COc1ccc(Nc2ccnc(N)n2)cc1OC.Cl,culture,,MIC,H37Rv,,Mycobacterium tuberculosis,,>100 µg/mL
Cc1cc(=O)c(CO)n[nH]1,culture,12.5 µg/mL,inhibition,H37Rv,,Mycobacterium tuberculosis,BACTEC,0%
C(CNC12CC3CC(CC(C3)C1)C2)NCC12CC3CC(CC(C3)C1)C2,culture,,MIC,,,Mycobacterium tuberculosis,,18.8 µM
COc1cccc(/C(C#N)=N/NC(=O)c2nc[nH]c2C)c1,culture,,MIC bound,H37Rv,,Mycobacterium tuberculosis,BACTEC,>12.5 µg/mL
CCCCCCCCCCCCCCCCNc1ccc(CNCCNC2CCCCCCC2)cc1,culture,,MIC,,,Mycobacterium tuberculosis,,50 µM
O=C(CC1Sc2ccccc2NC1=O)NNc1ccc(F)cc1,culture,,MIC bound,H37Rv,,Mycobacterium tuberculosis,BACTEC,>12.5 µg/mL
Fc1ccc(N2CCCCC2)c(NC(=S)c2ccncc2)c1,host protein,10 µM,inhibition,,BMPRIA,,kinase activity,1.1%
c1ccc2c(-c3cncc(N4CCN(c5cnccn5)CC4)n3)cccc2c1,target,10 µM,inhibition,,UL97 kinase,Cytomegalovirus,,>15%
c1cnc2n[nH]nc2c1,culture,,MIC,H37Rv,,Mycobacterium tuberculosis,,>100 µg/mL
N=C1C=C(N)C(=O)c2ccccc21,culture,,MIC,H37Rv,,Mycobacterium tuberculosis,BACTEC,12.5 µg/mL
O=C(O)Cc1ccccc1,culture,,MIC,H37Rv,,Mycobacterium tuberculosis,,>100 µg/mL
Cn1c(N2CCN(CCO)CC2)nc2c1c(=O)n(CC(O)CN1CCN(CCO)CC1)c(=O)n2C,culture,,MIC bound,H37Rv,,Mycobacterium tuberculosis,BACTEC,>12.8 µg/mL
c1ccc(C(CNCCN2CCCC3CCCCC32)c2ccccc2)cc1,culture,,MIC,,,Mycobacterium tuberculosis,,25 µM
CCOc1ccccc1Nc1nc(C)c(C(=O)CC(=O)C(=O)Nc2ccccc2)s1,culture,6.25 µg/mL,inhibition,H37Rv,,Mycobacterium tuberculosis,resazurin,1%
O=C(O)c1cc2ccccc2cc1O,culture,,MIC,H37Rv,,Mycobacterium tuberculosis,,100 µg/mL
CCCn1c(C)nc2cc(C(F)(F)F)cc([N+](=O)[O-])c21,culture,6.25 µg/mL,inhibition,H37Rv,,Mycobacterium tuberculosis,resazurin,15%
O=c1[nH]cc(I)cc1I,culture,,MIC,H37Rv,,Mycobacterium tuberculosis,,>100 µg/mL

8 of the rows above, restated:

structure,test,dose,measure,strain or isolate,protein,species,method,value
CCCn1c(C)nc2cc(C(F)(F)F)cc([N+](=O)[O-])c21,culture,6.25 µg/mL,inhibition,H37Rv,,Mycobacterium tuberculosis,resazurin,15%
OCc1cccc(-c2cncc(N3CCN(c4ccncc4)CC3)n2)c1,target,,IC50,,UL97 kinase,Cytomegalovirus,,<100 µM
COc1ccc(N2CCN(c3cncc(-c4ccc(Oc5ccccc5)cc4)n3)CC2)cc1OC,target,,IC50,,UL97 kinase,Cytomegalovirus,,<100 µM
NNC(=O)CC(NN)c1ccccc1O,culture,,MIC,H37Rv,,Mycobacterium tuberculosis,BACTEC,≥12.5 µg/mL
C=CCc1ccc(O)c(OC)c1,culture,,MIC90,2509,,Candida tropicalis,turbidity,495 µg/mL
O=C(O)Cc1ccccc1,culture,,MIC,H37Rv,,Mycobacterium tuberculosis,,>100 µg/mL
Cl.NCCCc1ccccc1,culture,,MIC,H37Rv,,Mycobacterium tuberculosis,,100 µg/mL
S=C(Nc1ccccc1)c1ccccc1,culture,,MIC,H37Rv,,Mycobacterium tuberculosis,,>100 µg/mL